Reference: patent US6015881 (dated 2000)

Experiment: general procedure: hybrid (solid and solution phase) peptide synthesis; 2-chlorotrityl chloride resin (super acid sensitive); HBTU/HOBT/DIEA (solid phase); HBTU/HOAT/EtPr2N (solution phase)
[1] = late stage modification step, HPLC

Row | Substance | step yield (late stage modification step) | final HPLC purity [1] | step yield (coupling step) | final HPLC purity (coupling step, HPLC) | crude HPLC purity [1]
1 | H-Tyr(tBu)-Thr(tBu)-Ser(tBu)-Leu-Ile-His(trt)-Ser(tBu)-Leu-Ile-Glu(OtBu)-Glu(OtBu)-Ser(tBu)-Gln(trt)-Asn(trt)-Gln(trt)- Gln-Glu(OtBu)-Lys(Boc)-Asn(trt)-Glu(OtBu)-Gln(trt)-Glu(OtBu)-Leu-Leu-Glu(OtBu)-Leu-Asp(tBu)-Lys(Boc)-Trp(Boc)-Ala | 95% | 90 A % |  |  | 
2 | Ac-Tyr(tBu)-Thr(tBu)-Ser(tBu)-Leu-Ile-His(trt)-Ser(tBu)-Leu-Ile-Glu(OtBu)-Glu(OtBu)-Ser(tBu)-Gln(trt)-Asn(trt)-Gln(trt)- Gln-Glu(OtBu)-Lys(Boc)-Asn(trt)-Glu(OtBu)-Gln(trt)-Glu(OtBu)-Leu-Leu-Glu(OtBu)-Leu-Asp(tBu)-Lys(Boc)-Trp(Boc)-Ala | 91% |  | 96% | 92 A % | 90 A %
3 | Fmoc-Tyr(tBu)-Thr(tBu)-Ser(tBu)-Leu-Ile-His(trt)-Ser(tBu)-Leu-Ile-Glu(OtBu)-Glu(OtBu)-Ser(tBu)-Gln(trt)-Asn(trt)- Gln(trt)-Gln-Glu(OtBu)-Lys(Boc)-Asn(trt)-Glu(OtBu)-Gln(trt)-Glu(OtBu)-Leu- Leu-Glu(OtBu)-Leu-Asp(tBu)-Lys(Boc)-Trp(Boc) |  |  | 88% | 85 A % | 
